Test results published in patent US20080118529.

Test system: H5-FLAG-His, haemagglutinin-5 of virus strain A/Vietnam/1203/2004 expressed in HEK293E cells (lot 1 210406CS)

In the case of “Tissue-type plasminogen activator (tPA, Actilyse, Boehringer-Ingelheim)”, the tPA/plasminogen activation assay is reported as “In H5 lot 1 210406CS some tPA activating moieties are detected”.
